Compound potency records, mixed from different reports. Data source: NIAID ChemDB in PubChem.

All rows: tests in culture; species: Cryptococcus neoformans; endpoint: MIC

Lines come from different laboratories, so protocols vary.

compound	strain or isolate	result
OC(Cn1cncn1)(Cn1nnnc1CCN1CCN(c2ccccn2)CC1)c1ccc(F)cc1F	LA314	>16 µg/mL
CC(C)C(=N)CCC[C@H]1CO[C@@](Cn2ccnc2)(c2ccc(F)cc2F)C1	A.34144	100 µg/mL
CC(C)CCCCCCCCC1CC(=O)NCC(=O)N[C@@H](CCCN)C(=O)N[C@@H](C(C)C)C(=O)N1	TIMM0354	0.63 µg/mL
Cc1ccc(-n2c(-c3ccccc3)nsc2=S)cc1	-	0.04 µg/mL
O=c1ccc2nccc3c4ccccc4n1c23	-	12.8 µM
CCOc1nc2c(c(-c3ccc4ccccc4c3)c1C#N)CSc1ccc(Cl)cc1-2	Farwania	100 µg/mL
CC1=CS/C(=C(/C#N)n2ccnc2)S1	-	>100 µg/mL
COc1cc2ccnc3c2c(c1OC(=O)c1ccc(C(C)(C)C)cc1)N(C)C=C3	-	2.5 µg/mL
CC(C)([C@](O)(Cn1cncn1)c1ccc(C(F)(F)F)cc1)S(C)(=O)=O	30 strains	4–256 µg/mL
CC(C)C(=O)CCC[C@H]1CO[C@@](Cn2ccnc2)(c2ccc(F)cc2F)C1	IFM.40092	<0.1 µg/mL
COc1cc(O)c2c(c1)C(=O)c1c(cc3c(c1O)-c1c(cc(C)c(C(=O)NC(C)C(=O)O)c1O)[C@H](OC1OC(C)C(N(C)C(=O)C(CO)(CO)CO)C(OC4OCC(O)C(O)C4O)C1O)[C@H]3O)C2=O	IAM 4514	>100 µg/mL
C[C@H](n1nnc(CCN2CCN(C(c3ccccc3)c3ccccc3)CC2)n1)[C@](O)(Cn1cncn1)c1ccc(F)cc1F	LA314	>16 µg/mL
C[C@@H](SC1COC(/C=C/C=C/c2ccc(F)cc2F)OC1)[C@](O)(Cn1cncn1)c1ccc(F)cc1F	TIMM0362	<0.008 µg/mL
COc1cc(O)c2c(c1)C(=O)c1c(cc3c(c1O)-c1c(cc(C)c(C(=O)NC(C)C(=O)O)c1O)[C@H](OC1OC(C)C(N(C)C(=O)CN)C(OC4OCC(O)C(O)C4O)C1O)[C@H]3O)C2=O	IAM 4514	3.1 µg/mL
CCn1c(-c2ccccn2)noc1=S	-	0.48 µg/mL
C[C@H]1[C@H](O)[C@@H](C)/C=C/C=C/C=C/C=C/C=C/C=C/C=C/[C@H](O[C@@H]2O[C@H](C)[C@@H](O)[C@H](N)[C@@H]2O)C[C@@H]2O[C@](O)(C[C@@H](O)C[C@@H](O)CC[C@H](O)[C@@H](O)C[C@@H](O)CC(=O)O[C@H]1C)C[C@H](O)[C@H]2C(=O)O	2867E	0.13 µg/mL
Cc1cc(-c2c(N=O)c(C)nn2-c2ccccc2)no1	-	66 µM
CC(C)C(=N)CCC[C@H]1CO[C@@](Cn2cccc2)(c2ccc(F)cc2F)C1	IFM.40092	12.5 µg/mL
CC#CC#CC#Cc1ccccc1	-	12.5 µg/mL
C[C@H]1N(C(=O)c2ccc(C(F)(F)F)cc2)CCO[C@@]1(Cn1cncn1)c1ccc(F)cc1F	Isolate 4	2 µg/mL
COc1cc(O)c2c(c1)C(=O)c1c(cc3c(c1O)-c1c(cc(C)c(C(=O)NC(CO)C(=O)O)c1O)[C@H](OC1OC(C)C(N(C)C)C(OC4OCC(O)C(O)C4O)C1O)[C@H]3O)C2=O	IAM 4514	3.1 µg/mL
CCCCSc1cc(=S)ss1	ATCC 32264	50 µg/mL
CCn1nc(C)cc1-c1cc(C)on1	-	>200 µM
COc1ccc(C2C(C#N)=C(N)OC3=C2CSc2ccccc23)cc1OC	93/V	25 µg/mL
CCCCCCSc1cc(=S)ss1	ATCC 32264	62.5 µg/mL
Cn1c(-c2ccncc2)noc1=S	-	0.51 µg/mL
COc1ccc(-c2c(C#N)c(OC)nc3c2CSc2ccc(Cl)cc2-3)cc1OC	Farwania	6 µg/mL
O=C(/C(=C1/SCCN1c1ccc(Cl)cc1)n1ccnc1)c1ccc(Cl)cc1	-	>100 µg/mL
COc1cc(O)c2c(c1)C(=O)c1c(cc3c(c1O)-c1c(cc(C)c(C(=O)NC(C)C(=O)O)c1O)[C@H](OC1OC(C)C(N(C)C/C=C/C(=O)O)C(OC4OCC(O)C(O)C4O)C1O)[C@H]3O)C2=O	IAM 4514	3.1 µg/mL
COc1nc2c(c(-c3ccc4c(c3)OCO4)c1C#N)CSc1ccccc1-2	Farwania	3 µg/mL
Cc1cc(-c2nn(C)c(C)c2N=O)no1	-	3.1 µM
COc1ccccc1CC(Cc1ccc(-c2ccccc2)cc1)n1ccnc1	-	5.5 µM
CC(N1CCCCC1)C(O)(Cn1cncn1)c1ccc(F)cc1F	KC-201	0.78 µg/mL
Cc1cc(-c2cc(C)n(CCO)n2)no1	-	>200 µM
COc1ccc2c(c1)-c1nc(OC)c(C#N)c(-c3ccc4c(c3)OCO4)c1CS2	93/V	12.5 µg/mL
CCCCCCCCCCCCC#CCCC#CC(=O)O	ATCC66031	<5 µM
COc1cc2ccnc3c2c(c1OC(=O)c1cccc(C)c1)N(C)C=C3	-	20 µg/mL
CC[C@@H]([C@H](C)O)n1ncn(-c2ccc(N3CCN(c4ccc(OC[C@@H]5CO[C@@](Cn6cncn6)(c6ccc(F)cc6F)C5)cc4)CC3)cc2)c1=O	DUMC 251.86	0.063 µg/mL
CC(=O)c1ccc2c(c1O)C=CC(C)(CO)O2	-	50 µg/mL
CCCCn1nc(-c2cc(C)on2)c(N=O)c1C	-	9 µM
C[C@@H]([C@@](O)(Cn1cncn1)c1ccc(F)cc1F)S(C)(=O)=O	B4500 (AZOLE-S)	>1000 µM
CC(C)C(=O)CCC[C@@H]1CO[C@@](Cn2cccc2)(c2ccc(F)cc2F)C1	IFM.40092	>100 µg/mL
COc1ccccc1N1CCN(CCc2nnnn2CC(O)(Cn2cncn2)c2ccc(F)cc2F)CC1	LA314	>16 µg/mL
S=c1cc(SCC2CCCC2)ss1	ATCC 32264	50 µg/mL
OC(Cn1cncn1)(Cn1nnc(CCN2CCN(c3cccc(C(F)(F)F)c3)CC2)n1)c1ccc(F)cc1F	LA314	>16 µg/mL
Clc1ccc(CC(Cc2ccc(-c3ccccc3)cc2)n2ccnc2)c(Cl)c1	-	5.5 µM
CCSc1ssc(=S)c1Cl	ATCC 32264	62.5 µg/mL
C[C@@H](CC1COC(/C=C/C=C/c2ccc(C#N)cc2F)OC1)[C@](O)(Cn1cncn1)c1ccc(F)cc1F	TIMM0362	0.008 µg/mL
COc1cc(O)c2c(c1)C(=O)c1c(cc3c(c1O)-c1c(cc(C)c(C(=O)NC(C)C(=O)O)c1O)[C@H](OC1OC(C)C(N(C)CC(N)=O)C(OC4OCC(O)C(O)C4O)C1O)[C@H]3O)C2=O	IAM 4514	1.6 µg/mL
OC(Cn1cncn1)(Cn1nnnc1CCN1CCN(c2cccc(C(F)(F)F)c2)CC1)c1ccc(F)cc1F	LA314	>16 µg/mL
S=c1nc(-c2ccccc2)[nH]s1	-	0.06 µg/mL
OC(Cn1cncn1)(Cn1nnc(CCN2CCN(C(c3ccccc3)c3ccccc3)CC2)n1)c1ccc(F)cc1F	LA314	>16 µg/mL
COc1cc(O)c2c(c1)C(=O)c1c(cc3c(c1O)-c1c(cc(C)c(C(=O)NC(C)C(=O)O)c1O)[C@H](OC1OC(C)C(N(C)CC(=O)O)C(OC4OCC(O)C(O)C4O)C1O)[C@H]3O)C2=O	IAM 4514	1.6 µg/mL
CCCCCCCCSc1cc(=S)ss1	ATCC 32264	125 µg/mL
COC(=O)C1C(O)CC2(O)CC(O)CC(O)CC(O)CC(O)CC(=O)CC(O)CC(=O)OC(C(C)CCC(O)CC(=O)c3ccc(N)cc3)C(C)/C=C/C=C/C=C/C=C/C=C/C=C/C=C/C(O[C@@H]3O[C@H](C)[C@@H](O)[C@H](N)[C@@H]3O)CC1O2	5 isolates	0.125–0.25 µg/mL
CCC(C)CCCCCCCCC1CC(=O)NCC(=O)N[C@@H](CCCN)C(=O)N[C@@H](C(C)C)C(=O)N1	TIMM0354	0.63 µg/mL
CCn1nc(C)c([N+](=O)[O-])c1-c1cc(C)on1	-	>200 µM
OC(Cn1cncn1)(Cn1cncn1)c1ccc(F)cc1F	3	3.13 µg/mL
CCn1c(-c2ccncc2)noc1=S	-	0.95 µg/mL
Fc1ccc(CC(Cc2ccc(-c3ccccc3)cc2)n2ccnc2)cc1	-	5.5 µM
CC(C)C(=N)CCC=C1CO[C@@](Cn2cncn2)(c2ccc(F)cc2F)C1	A.34144	50 µg/mL
COc1cc2ccnc3c2c(c1OC(=O)c1ccc(OC(F)(F)F)cc1)N(C)C=C3	-	10 µg/mL
Cn1c(-c2ccccn2)nsc1=O	-	0.06 µg/mL
O=C(/C(=C1/SCCN1c1ccccc1)n1ccnc1)c1ccc(Cl)cc1	-	>100 µg/mL
OC(Cn1cncn1)(Cn1nnc(CCN2CCN(c3ccc(Cl)cc3)CC2)n1)c1ccc(F)cc1F	LA314	>16 µg/mL
CCn1c(-c2ccccn2)nsc1=O	-	0.06 µg/mL
CCCCc1ccc(C(=O)Oc2c(OC)cc3ccnc4c3c2N(C)C=C4)cc1	-	2.5 µg/mL
CCCOc1nc2c(c(-c3ccc4c(c3)OCO4)c1C#N)CSc1ccc(Cl)cc1-2	Farwania	12.5 µg/mL
CCSc1ssc(=S)c1C	ATCC 32264	100 µg/mL
COc1ccc(C2C(C#N)=C(N)OC3=C2CSc2ccccc23)cc1	25	12.5 µg/mL
CN[C@@H]1[C@H](O[C@@H]2O[C@H](CO)[C@@H](O)[C@H](S(=O)(=O)O)[C@H]2O)[C@@H](O)[C@H](O[C@H]2c3cc(C)c(C(=O)N[C@H](CO)C(=O)O)c(O)c3-c3c(cc4c(c3O)C(=O)c3cc(OC)cc(O)c3C4=O)[C@@H]2O)O[C@@H]1C	D49	6.3 µg/mL

The first 9 rows once more:

compound | strain or isolate | result
OC(Cn1cncn1)(Cn1nnnc1CCN1CCN(c2ccccn2)CC1)c1ccc(F)cc1F | LA314 | >16 µg/mL
CC(C)C(=N)CCC[C@H]1CO[C@@](Cn2ccnc2)(c2ccc(F)cc2F)C1 | A.34144 | 100 µg/mL
CC(C)CCCCCCCCC1CC(=O)NCC(=O)N[C@@H](CCCN)C(=O)N[C@@H](C(C)C)C(=O)N1 | TIMM0354 | 0.63 µg/mL
Cc1ccc(-n2c(-c3ccccc3)nsc2=S)cc1 | - | 0.04 µg/mL
O=c1ccc2nccc3c4ccccc4n1c23 | - | 12.8 µM
CCOc1nc2c(c(-c3ccc4ccccc4c3)c1C#N)CSc1ccc(Cl)cc1-2 | Farwania | 100 µg/mL
CC1=CS/C(=C(/C#N)n2ccnc2)S1 | - | >100 µg/mL
COc1cc2ccnc3c2c(c1OC(=O)c1ccc(C(C)(C)C)cc1)N(C)C=C3 | - | 2.5 µg/mL
CC(C)([C@](O)(Cn1cncn1)c1ccc(C(F)(F)F)cc1)S(C)(=O)=O | 30 strains | 4–256 µg/mL

Two numbers with a dash give a range or band. An empty or dashed field is not shown.